Compound potency records, mixed from different reports. Data source: NIAID ChemDB in PubChem.

Common to all: whole-cell or culture tests; agent: Candida albicans; read-out: MIC

Blank or dashed fields: not listed here. Neighbouring rows are from separate reports.

smiles | strain or isolate | method | value
CCCCCCCCC[C@@H]1CC(=O)NCC(=O)N[C@@H](CCCCN)C(=O)N[C@@H](CCCCN)C(=O)N1 | ATCC 24433 | - | 64 µg/mL
CC1(C)N=C(N)N=C(N)N1OCc1cccc(-c2cccc(CON3C(N)=NC(N)=NC3(C)C)c2)c1 | - | - | 60 µg/mL
NCCNC(=O)C1=Nc2ccc(NC(=O)C3=Nc4ccc(C(=O)Nc5ccc6[nH]c(C(=O)NCCN)cc6c5)cc4C3)cc2C1 | - | - | 2 µg/mL
CCCCCCCCC[C@@H]1CC(=O)NCC(=O)N[C@@H](CCC(=O)O)C(=O)N[C@@H](C(C)C)C(=O)N1 | ATCC 24433 | - | >64 µg/mL
CC(=O)c1ccc2sccc2c1O | - | - | 50 µg/mL
Nc1c(-c2nc3ccccc3o2)sc(=S)n1-c1ccccc1 | - | - | >200 µg/mL
CCCCCCCCCCC[C@@H]1CC(=O)NCC(=O)N[C@@H](CCCCN)C(=O)N[C@@H](CC(C)(C)C)C(=O)N1 | ATCC 24433 | - | 4 µg/mL
CC[C@@H]([C@H](C)O)n1ncn(-c2ccc(N3CCN(c4ccc(OC[C@@H]5CO[C@@](Cn6cncn6)(c6ccc(F)cc6F)C5)cc4)CC3)cc2)c1=O | Isolate 3474 | - | 0.06 µg/mL
Cc1cc(=O)n2c(oc3ccccc32)c1C#N | - | - | >200 µg/mL
N=C(N)c1ccc2nc(-c3ccc(-c4nc5ccc(C(=N)N)cc5[nH]4)[nH]3)[nH]c2c1 | Isolate CA2256 fluconazole-resistant | - | 0.78 µg/mL
CCC(C)n1ncn(-c2ccc(N3CCN(c4ccc(OC[C@H]5CO[C@](Cn6cncn6)(c6ccc(Cl)cc6Cl)O5)cc4)CC3)cc2)c1=O | E81113 | - | 1.56 µg/mL
O=C1CS/C(=C/c2nc3ccccc3o2)N1 | - | - | >200 µg/mL
CCc1ccc(C(=O)Oc2c(OC)cc3ccnc4c3c2N(C)C=C4)cc1 | - | - | 20 µg/mL
CCCCCCCCC[C@@H]1CC(=O)NCC(=O)N[C@@H](CCCCN(C)C)C(=O)N[C@@H](C(C)C)C(=O)N1 | ATCC 24433 | - | 8 µg/mL
CNc1ccc(C(=O)CC(O)CCC(C)C2OC(=O)CC(O)CC(=O)CC(O)CC(O)CC(O)CC(O)CC3(O)CC(O)C(C(=O)N4CCN(C)CC4)C(CC(O[C@@H]4O[C@H](C)[C@@H](O)[C@H](NC(=O)CCN5CCCCC5)[C@@H]4O)/C=C/C=C/C=C/C=C\C=C/C=C/C=C/C2C)O3)cc1 | 200 | - | 0.12 µg/mL
Cc1ccc(N/N=C(\C#N)c2nc3ccccc3o2)cc1 | - | - | <200 µg/mL
COc1c(-c2ccccc2)oc2c(ccc3sccc32)c1=O | - | - | 12.5 µg/mL
Oc1ccc(C(=S)N2C=NC(c3ccccc3)C2c2ccccc2)c(O)c1 | 10 isolates | - | 25 µg/mL
COc1ccc(-c2oc3c(ccc4sccc43)c(=O)c2O)cc1 | - | - | >50 µg/mL
Nc1c(-c2nc3ccccc3o2)sc(=S)n1-c1ccc(Cl)cc1 | - | - | <200 µg/mL
CCCCCCCCCCCCCCON1C(N)=NC(N)=NC1(C)C | - | - | 15 µg/mL
CNc1ccc(C(=O)CC(O)CCC(C)C2OC(=O)CC(O)CC(=O)CC(O)CC(O)CC(O)CC(O)CC3(O)CC(O)C(C(=O)N4CCCCC4)C(CC(O[C@@H]4O[C@H](C)[C@@H](O)[C@H](N)[C@@H]4O)/C=C/C=C/C=C/C=C\C=C/C=C/C=C/C2C)O3)cc1 | 200 | - | 0.03 µg/mL
COc1cc2ccnc3c2c(c1OC(=O)c1ccc(C(C)(C)C)cc1)N(C)C=C3 | - | - | 10 µg/mL
NC1=NC2(CCCCC2)N(OCCCCCCCc2ccccc2)C(N)=N1 | - | - | >60 µg/mL
CNc1ccc(C(=O)CC(O)CCC(C)C2OC(=O)CC(O)CC(=O)CC(O)CC(O)CC(O)CC(O)CC3(O)CC(O)C(C(=O)N4CCN(C)CC4)C(CC(O[C@@H]4O[C@H](C)[C@@H](O)[C@H](NC(=O)CN5CCN(C)CC5)[C@@H]4O)/C=C/C=C/C=C/C=C\C=C/C=C/C=C/C2C)O3)cc1 | 200 | - | 0.06 µg/mL
C[C@H]1[C@H](O)[C@@H](C)/C=C/C=C/C=C/C=C/C=C/C=C/C=C/[C@H](O[C@@H]2O[C@H](C)[C@@H](O)[C@H](N)[C@@H]2O)C[C@@H]2O[C@](O)(C[C@@H](O)C[C@@H](O)CC[C@H](O)[C@@H](O)C[C@@H](O)CC(=O)O[C@H]1C)C[C@H](O)[C@H]2C(=O)O | ATCC 90028 | - | 2.5 µg/mL
CC(N1CCN(c2ccc(-n3cnnn3)cc2)C1=O)[C@@](O)(Cn1cncn1)c1ccc(F)cc1F | TA | - | >16 µg/mL
Oc1ccc(C(=S)N2CCN=C2Cc2cccc3ccccc23)c(O)c1 | 10 isolates | - | 50 µg/mL
CC(N1CCN(c2ccc(-n3cnnn3)cc2)C1=O)[C@](O)(Cn1cncn1)c1ccc(F)cc1F | CA383 | - | 4 µg/mL
O=C(/C=C/c1ccccc1)c1ccc2sccc2c1O | - | - | 25 µg/mL
N#C/C(=N\Nc1ccccc1)c1nc2ccccc2o1 | - | - | >200 µg/mL
CCC(C)CC(C)CCCCCCCCC(=O)N[C@H]1C[C@@H](O)[C@H](NCCN)NC(=O)[C@@H]2[C@@H](O)CCN2C(=O)[C@H]([C@H](O)CCN)NC(=O)[C@H]([C@H](O)[C@@H](O)c2ccc(O)cc2)NC(=O)[C@@H]2C[C@@H](O)CN2C(=O)[C@H]([C@@H](C)O)NC1=O | ATCC 90028 | broth dilution | 0.5 µg/mL
Cc1ccc(CON2C(N)=NC(N)=NC23CCCCC3)c2ccccc12 | - | - | 62.5 µg/mL
CCCCCCCCOc1ccc(-c2ccc(C(=O)NC3CC(NCCN)CNC(=O)[C@@H]4[C@@H](O)[C@@H](C)CN4C(=O)[C@@H](CO)NC(=O)[C@H]([C@H](O)Cc4ccccc4)NC(=O)[C@@H]4C[C@@H](O)CN4C(=O)[C@H]([C@@H](C)O)NC3=O)cc2)cc1 | 5810 | - | 0.5 µg/mL
Oc1ccc(C(=S)N2CCN=C2c2ccccc2)c(O)c1 | 10 isolates | - | 100 µg/mL
CCCCCCCCCCON1C(N)=NC(N)=NC1CCCCC | - | - | 30 µg/mL
Cn1ccc2c(O)c(C(=O)/C=C/c3ccccc3)ccc21 | - | - | 25 µg/mL

A second listing of 5 rows from above:

{"smiles": "C[C@H]1[C@H](O)[C@@H](C)/C=C/C=C/C=C/C=C/C=C/C=C/C=C/[C@H](O[C@@H]2O[C@H](C)[C@@H](O)[C@H](N)[C@@H]2O)C[C@@H]2O[C@](O)(C[C@@H](O)C[C@@H](O)CC[C@H](O)[C@@H](O)C[C@@H](O)CC(=O)O[C@H]1C)C[C@H](O)[C@H]2C(=O)O", "strain or isolate": "ATCC 90028", "value": "2.5 µg/mL"}
{"smiles": "CCCCCCCCCCC[C@@H]1CC(=O)NCC(=O)N[C@@H](CCCCN)C(=O)N[C@@H](CC(C)(C)C)C(=O)N1", "strain or isolate": "ATCC 24433", "value": "4 µg/mL"}
{"smiles": "O=C1CS/C(=C/c2nc3ccccc3o2)N1", "value": ">200 µg/mL"}
{"smiles": "Cc1cc(=O)n2c(oc3ccccc32)c1C#N", "value": ">200 µg/mL"}
{"smiles": "CC(=O)c1ccc2sccc2c1O", "value": "50 µg/mL"}